Anti-infective test results gathered from many reports (values: NIAID ChemDB through PubChem).

All rows: growth or infection tests; agent: Cryptococcus neoformans; read-out: MIC

Blank or dashed fields: not listed here. Rows are shuffled and stem from different studies.

| SMILES | method | strain or isolate | result |
|---|---|---|---|
| Cc1ccccc1N1C(=O)C[C@@H](C)C1=O | broth dilution / turbidity | ATCC 32264 | 62.5 µg/mL |
| CCCCCCCCCCCCCCCC(=O)NC(CCCN)C(=O)NC(CCCN)C(=O)NC(CCCN)C(=O)NC(CCCN)C(N)=O | broth dilution | ATCC 2344 | 3.1 µg/mL |
| CC1CC(=O)N(c2ccc(F)cc2F)C1=O | broth dilution / turbidity | ATCC 32264 | 125 µg/mL |
| O=[N+]([O-])c1ccc(C=Nc2ccccc2O)cc1 | broth dilution | ATCC 28957 | 5.7 µg/mL |
| CC1CC(=O)N(c2ccc([N+](=O)[O-])cc2)C1=O | broth dilution / turbidity | ATCC 32264 | 125 µg/mL |
| CC1=CCC[C@@H]2[C@@](C)(CC/C(C)=C/Cn3c[n+](C)c4ncnc(NO)c43)[C@H](C)CC[C@@]12C | resazurin | ATCC 90113 | 10 µg/mL |
| C[C@@H](c1ncncc1F)[C@](O)(Cn1cncn1)c1ccc(F)cc1F | broth dilution | CBS 889 | 0.016 µg/mL |
| COc1nc2c(c(-c3ccc(C)cc3)c1C#N)CSc1ccccc1-2 | - | Farwania | 3 µg/mL |
| CNC(NC)c1ccc2cc(-n3cc(CCCO)nn3)c(=O)oc2c1 | broth dilution | ATCC 96806 | >750 µg/mL |
| COc1ccccc1C1C(C#N)=C(N)OC2=C1CSc1ccccc12 | - | 93/V | 12.5 µg/mL |
| C=CC[C@@H]1/C=C(/C)C[C@H](C)C[C@H](OC)[C@H]2O[C@@](O)(C(=O)C(=O)C3CCCC[C@H]3C(=O)O[C@H](/C(C)=C/[C@@H]3CC[C@@H](O)[C@H](OC)C3)[C@H](C)[C@@H](O)CC1=O)[C@H](C)C[C@@H]2OC | visual reading | H99 | 0.01 µg/mL |
| Oc1ccccc1N=Cc1ccc(O)c(O)c1O | broth dilution | ATCC 62066 | 5.7 µg/mL |
| CC1CC(=O)N(CCCCc2ccccc2)C1=O | broth dilution / turbidity | ATCC 32264 | 125 µg/mL |
| Oc1ccccc1N=Cc1ccc2c(c1)OCO2 | broth dilution | 96806 | 5.7 µg/mL |
| CCCCCCCCCCCCCC(=O)NC(CCCN)C(=O)NC(CCCN)C(=O)NC(CCCN)C(=O)NC(CCCN)C(N)=O | broth dilution | ATCC 2344 | 12.5 µg/mL |
| C[C@@H]1CC(=O)N(CCCCc2ccccc2)C1=O | broth dilution / turbidity | ATCC 32264 | 31.3 µg/mL |
| C=C1CC[C@@H]2C[C@H]1C2(C)C | agar diffusion / agar | - | 234 µg/mL |
| Oc1ccccc1N=Cc1ccc(F)cc1 | broth dilution | WP | 8 µg/mL |
| CCCCCCCCCCCCCCCC(=O)NC(CCCN)C(N)=O | broth dilution | ATCC 2344 | >100 µg/mL |
| CC1CC(=O)N(c2ccccc2)C1=O | broth dilution / turbidity | ATCC 32264 | 125 µg/mL |
| Oc1ccccc1N=Cc1ccccc1 | broth dilution | VM-MCMMPI | 5.7 µg/mL |
| c1ccc(N2CCC(n3cc(CN4CCc5sccc5C4)nn3)CC2)cc1 | agar | NCIM576 | 90 µg/mL |
| CCCCCCCCCCCC(=O)NC(CCCN)C(=O)NC(CCCN)C(N)=O | broth dilution | ATCC 2344 | 50 µg/mL |
| COc1cc(C2C(C#N)=C(N)OC3=C2CSc2ccccc23)ccc1O | - | 93/V | 3 µg/mL |
| Cn1nc(Cc2ccc(Cl)cc2)c2ccccc2c1=O | broth dilution | Clinical isolate (IM 031631) | 62.5 µg/mL |
| COc1ccccc1-c1c(C#N)c(OC)nc2c1CSc1ccccc1-2 | - | 25 | 25 µg/mL |
| CC1=CC[C@@H]2C[C@H]1C2(C)C | agar diffusion / agar | - | >20000 µg/mL |
| Oc1cccc(C=Nc2ccccc2O)c1 | broth dilution | ATCC 62066 | 1.4 µg/mL |
| CN1CCC(n2cc(CN3CCc4sccc4C3)nn2)CC1 | agar | NCIM576 | >200 µg/mL |
| C[C@@H]1CC(=O)N(CCCc2ccccc2)C1=O | broth dilution / turbidity | ATCC 32264 | 62.5 µg/mL |
| Oc1ccccc1N=Cc1cccc(O)c1O | broth dilution | LMM 820 | 4 µg/mL |
| COc1ccc(-c2c(C#N)c(OC)nc3c2CSc2ccc(Cl)cc2-3)cc1O | - | Farwania | 6 µg/mL |
| Oc1ccccc1C=Nc1ccccc1O | broth dilution | WP | 5.7 µg/mL |
| C[C@@H](c1ncncc1F)[C@](O)(Cn1cncn1)c1ccc(F)cc1F | broth dilution | Clinical isolate (IM 031631) | 0.03 µg/mL |
| COc1ccc(-c2c(C#N)c(OC)nc3c2CSc2ccccc2-3)cc1OC | - | 93/V | 6 µg/mL |

A second listing of 4 rows from above:

C=CC[C@@H]1/C=C(/C)C[C@H](C)C[C@H](OC)[C@H]2O[C@@](O)(C(=O)C(=O)C3CCCC[C@H]3C(=O)O[C@H](/C(C)=C/[C@@H]3CC[C@@H](O)[C@H](OC)C3)[C@H](C)[C@@H](O)CC1=O)[C@H](C)C[C@@H]2OC ; method: visual reading ; strain or isolate: H99 ; result: 0.01 µg/mL
Oc1ccccc1N=Cc1ccc2c(c1)OCO2 ; method: broth dilution ; strain or isolate: 96806 ; result: 5.7 µg/mL
C[C@@H]1CC(=O)N(CCCc2ccccc2)C1=O ; method: broth dilution / turbidity ; strain or isolate: ATCC 32264 ; result: 62.5 µg/mL
CC1=CC[C@@H]2C[C@H]1C2(C)C ; method: agar diffusion / agar ; result: >20000 µg/mL